Measured values from several laboratories, pooled; numbers as filed in NIAID ChemDB.

All rows: growth or infection tests; agent: Rhinovirus; endpoint: inhibition

Inhibition is in % at the dose shown (toxicity tests: loss of growth or viability). An empty or dashed field is not shown. Two numbers with a dash give a range or band. Conditions beyond the fields shown may differ between rows.

| SMILES | strain or isolate | cell line | read by | tested at | result |
|---|---|---|---|---|---|
| COc1cc(C(=O)Oc2c(-c3ccc(Cl)cc3)oc3ccccc3c2=O)cc(OC)c1O | Serotype 14 | HeLa | plaque count | 1.56 µM | 27% |
| Cc1ccc(Cn2c(Oc3ccccc3)nc3c(N(C)C)nc(C(F)(F)F)nc32)cc1 | TYPE 1B | M-HELA | plaque count | 8 µg/mL | 16% |
| FC(F)(F)c1cccc(C2CCN(c3ccc(Br)nn3)C2)c1 | 17 serotypes | - | - | 0.006 µg/mL | 18% |
| O=C(O)Cc1csc(/N=C2\SC[C@@H]3Cc4ccccc4CN23)n1 | Serotype 9 | MRC-5 | cytopathic effect | 15 µg/mL | 80–100% |
| CN(C)c1ccc(Cn2cnc3c(N(C)C)nc(C(F)(F)F)nc32)cc1 | Serotype 8 | M-HELA | plaque count | 8 µM | 37% |
| O=S(=O)([O-])c1ccc(O)cc1 | - | Human embryonic lung cells | cytopathic effect | 50 µg/mL | 0% |
| CCOc1cc(O)c(C(=O)/C=C/c2ccc(OC)cc2)c(OC)c1 | 100 serotypes | - | - | 0.145 µg/mL | 53% |
| Cc1ccc(/C=C/c2cc(=O)c3ccccc3o2)cc1 | Serotype 1B | HeLa | plaque count | 6.25 µM | 36% |
| Cc1ccccc1Cn1cnc2c(N(C)C)nc(C(F)(F)F)nc21 | Serotype 5 | M-HELA | plaque count | 8 µM | 40% |
| Cc1cc(-c2ccc(N=Nc3ccc4c(S(=O)(=O)O)cc(S(=O)(=O)O)c(N)c4c3O)c(C)c2)ccc1N=Nc1ccc2c(S(=O)(=O)O)cc(S(=O)(=O)O)c(N)c2c1O | - | Human embryonic lung cells | cytopathic effect | 50 µg/mL | 20% |
| N#Cc1cc([N+](=O)[O-])ccc1Oc1ccc(Cl)c(Cl)c1 | TYPE 1A | VERO | - | 0.097 µg/mL | 20% |
| CCCCCCCCCCCCCCOc1ccc(C(C)=O)o1 | TYPE 39 | HFF | plaque count | 0.25 µg/mL | 98.8% |
| CN(C)c1nc(C(F)(F)F)nc2c1ncn2Cc1ccc(Cl)c(N)c1 | Serotype 30 | M-HELA | plaque count | 8 µM | 34% |
| COc1cc(C(=O)Oc2c(-c3ccc(Cl)c(Cl)c3)oc3ccccc3c2=O)cc(OC)c1O | Serotype 14 | HeLa | plaque count | 1.56 µM | 26% |
| CN(C)c1nc(C(F)(F)F)nc2c1ncn2Cc1ccccc1Cl | Serotype 19 | M-HELA | plaque count | 8 µM | 27% |
| CS(=O)(=O)c1cnc2c(c1)CCC(c1ccc(Cl)c(Cl)c1)O2 | Serotype 1A | HeLa | plaque count | 0.5 µg/mL | 95.4% |
| CN(C)c1nc(C(F)(F)F)nc2c1ncn2Cc1ccccc1 | Serotype 21 | M-HELA | plaque count | 8 µM | 28% |
| CC1(C)COC(c2ccc(OCCN3CCN(c4ccc(Cl)nn4)CC3)cc2)=N1 | 17 serotypes | - | - | 32 µg/mL | 71% |
| COc1cc(/C=C/C(=O)Oc2c(-c3ccc(Cl)cc3)oc3ccccc3c2=O)ccc1OC(C)=O | Serotype 14 | HeLa | plaque count | 1.56 µM | 10% |
| CN(C)c1nc(C(F)(F)F)nc2c1ncn2Cc1cccc(F)c1 | Serotype 30 | M-HELA | plaque count | 8 µM | 28% |
| O=S(=O)(O)c1ccc2ccc(S(=O)(=O)O)cc2c1 | - | Human amnion AV3 cells | cytopathic effect | 10 µg/mL | 10% |
| O=C(/C=C(\O)c1ccccc1O)/C=C/c1ccc([N+](=O)[O-])cc1 | Serotype 14 | HeLa | plaque count | 6.25 µM | 41% |
| COc1cc(/C=C/C(=O)Oc2c(-c3ccc(Cl)c(Cl)c3)oc3ccccc3c2=O)ccc1O | Serotype 1B | HeLa | plaque count | 1.59 µM | 33% |
| O=S(=O)(O)c1ccc2cc(O)c(S(=O)(=O)O)cc2c1 | - | Human embryonic lung cells | cytopathic effect | 10 µg/mL | 10% |
| Fc1cccc(Cn2cnc3c(Nc4cccc(F)c4)nc(C(F)(F)F)nc32)c1 | Serotype 86 | M-HELA | plaque count | 5 µM | 38% |
| Cc1ccc(Cn2cnc3c(N(C)C)nc(C(F)(F)F)nc32)cc1 | TYPE 21 | M-HELA | plaque count | 8 µM | 40% |
| Cc1ccc(Cn2cnc3c(N(C)C)nc(C(F)(F)F)nc32)cc1 | Serotype 16 | M-HELA | plaque count | 5 µM | 12% |